In PubChem BioAssay AID652007 (The Scripps Research Institute Molecular Screening Center, 2013):
The entries are a selection whose mix differs from that of the whole data set. Active and inactive are the calls of the source. No stated cut-off is given here; in the data, active means inhibition above about 36%; inactive means the rest.

Each molecule was assayed on transactivating tegument protein VP16 (Human herpesvirus 1) (assay: VP16 transactivation reporter inhibitors, counter-screen for SRC2 inhibitor project, cell-based, luminescence, single concentration (AID 652007)). Conditions: cell-based VP16 transactivation luciferase reporter, at 8.9 µM, stronger effect = higher value.

Row | SMILES | inhibition
1 | C[N+]1=C2C=CC=CC=C2SC12C([N+](=O)[O-])=CC([N+](=O)[O-])=C[C-]2[N+](=O)[O-] (stereo unspecified) | active: 88.9%
